The text below walks through data of patent US20110033450A1 (ETAT FRANCAIS REPRESENTE PAR LE DELEGUE GENERAL POUR I …, published 2011).

The target of this test is protective antigen PA83 (Bacillus anthracis, UniProt P13423 30-764).

As a reminder, the Kd is the free concentration of one partner at which half of the binding sites on the other are occupied at equilibrium, for simple one-to-one binding. The low end stands for higher affinity, the high end for lower affinity. By koff is commonly meant the first-order rate constant of dissociation. As usually defined, the kon is the rate constant with which the complex forms. A low value points to slow association.

B1: Fab 35PA83 (Fab, V domains shown)
VH: GPGLLKPSETLSLTCAVSGDSISGGYYWSWIRQSPGKGLEWIGHIYGSTADTRYNPSLKSRVTISKDTSKNQLSLQLRSVTAADTAVYYCARSGYNFWSGEYYGLDSWGQGAVVTVSS
VL: TQSPSSLSAYVGDKVTITCHASQGINSWLAWYQQKPGKAPKLLIYKASSLQSGVPSRFSGSGSGTDYTLTISSLQSEDFASYYCLQYDSAPLAFGPGTKLDIKR
Regarding B1, binding was characterised by a dissociation constant (Kd) of 3.4 nM, the koff was 0.00032 s⁻¹ and the association rate constant (kon) was 93000 M⁻¹ s⁻¹.
